In paper PMC8286836, “Identifying SARS-CoV-2 antiviral compounds by screening for small molecule inhibitors of Nsp5 main protease” (Biochemical Journal, 2021):
Counter-ions that a name gives are not always drawn. Where a SMILES comes first, the peptide text is derived from it. [ ]: non-standard residue; d: D form. The star is where a group is joined. Nle = CCCC[C@H](N)C(=O)O; Cbz = O=C(OCc1ccccc1)*; CH2F = FC*

Experiment: compound interference with the HTS emission wavelength (420 nm)
Set-up: key: normal: drug compounds that did not interfere with the HTS emission wavelength; moderate: Those that interfered slightly but a reduction in nsp5 activity was still evident; HIGH: those that greatly interfered with the HTS fluorescence and so were likely artificial hits we classed as ‘high'
Details: interference with HTS emission wavelength 420 nm

Compound	Fluorescence
C=CCn1c(=O)c2c(nc(-c3ccc(S(=O)(=O)O)cc3)n2C)n(C)c1=O [1-Allyl-3,7-dimethyl-8-p-sulfophenylxanthine]	moderate
CC(C)=CCc1cc2c(cc1O)oc(=O)c1c3ccc(O)cc3oc21 [3,9-dihydroxy-2-(3-methyl-2-butenyl)-6H-[1]benzofuro[3,2-c]chromen-6-one]	HIGH
COc1ccc(-c2ccc3cc(C(=O)O)ccc3c2)cc1C12CC3CC(CC(C3)C1)C2 [Adapalene]	HIGH
COc1cc2nc(N(C)CCCNC(=O)C3CCCO3)nc(N)c2cc1OC (stereo not drawn) [Alfuzosin]	HIGH
O=C1O/C(=C/Br)CCC1c1cccc2ccccc12 (stereo not drawn) [Bromoenol lactone]	normal
Cc1ccccc1N=Nc1ccc(NC(=O)c2ccnn2C)c(C)c1 [CH-223191]	normal
O=C(O)CCCCC(CCSCc1ccccc1)SCc1ccccc1 (stereo not drawn) [CPI-613]	HIGH
CCCC[C@@H](C=O)NC(=O)[C@H](CC(C)C)NC(=O)[C@H](CC(C)C)NC(C)=O [Calpain Inhibitor I, (2S)-2-(acetylamino)-N-[(1S)-1-({[(1S)-1-formylpentyl]amino}carbonyl)-3-methylbutyl]-4-methylpentanamide] (Ac-Leu-Leu-[Nle]-aldehyde)	normal
C=C1C[C@@]2(O)O[C@@]3(C[C@H]2C(C)C)[C@@H](C)CC[C@@H]13 [Curcumol]	HIGH
COc1cc2nc(N3CCN(C(=O)C4COc5ccccc5O4)CC3)nc(N)c2cc1OC.CS(=O)(=O)O (stereo not drawn) [Doxazosin (mesylate)]	HIGH
CC(C)(C#N)c1ccc(N2C(=O)OCc3cnc4ccc(-c5cnc6ccccc6c5)cc4c32)cc1 [ETP-46464]	HIGH
Br.CCCc1cc(-c2nc(-c3ccc(C)cc3)cs2)ccn1 [Fatostatin HBr]	normal
Cn1c2ccccc2c2c3c(c4c5ccccc5n(CCC#N)c4c21)CNC3=O [Go6976]	moderate
CN1C2CCCC1CC(NC(=O)c1nn(C)c3ccccc13)C2 (stereo not drawn) [Granisetron HCl]	HIGH
CC(C)[C@H](N=C(NS(=O)(=O)c1ccc(Cl)cc1)N1C[C@H](c2ccccc2)C(c2ccc(Cl)cc2)=N1)C(N)=O [JD-5037]	HIGH
CN1CCN(c2c(F)cc3c(=O)c(C(=O)O)cn4c3c2OCN4C)CC1 [Marbofloxacin]	moderate
Cn1cc(-c2ccc3ncc(Cc4ccc5ncccc5c4)n3n2)cn1 [NVP-BVU972]	HIGH
COc1ccc(COc2cc3oc(=O)c4cc(C(C)O)ccc4c3cc2OC)cc1 (stereo not drawn) [Palomid 529]	HIGH
COc1cc2nc(N3CCN(C(=O)c4ccco4)CC3)nc(N)c2cc1OC [Prazosin hydrochloride]	HIGH
Cc1ccc(S(=O)(=O)Cc2nc(-c3ccc(C(=O)NCc4cccnc4)cc3)oc2C)cc1 [STF-118804]	HIGH
CCOc1ccc(Cc2cc([C@@H]3O[C@H](SC)[C@@H](O)[C@H](O)[C@H]3O)ccc2Cl)cc1 [Sotagliflozin (LX4211), Sotagliflozin]	normal
COc1cc2c(cc1OC)CN(CCc1ccc(NC(=O)c3cc(OC)c(OC)cc3NC(=O)c3cnc4ccccc4c3)cc1)CC2 [Tariquidar]	HIGH
COc1cc2ncc(-c3ccccc3)nc2cc1OC [Tyrphostin AG 1296]	moderate
COC(=O)CCC(NC(=O)C(CC(=O)OC)NC(=O)OCc1ccccc1)C(=O)NC(C(=O)NC(CC(=O)OC)C(=O)CF)C(C)C (stereo not drawn) [Z-DEVD-FMK]	normal
CCC(C)C(NC(=O)OCc1ccccc1)C(=O)NC(CCC(=O)OC)C(=O)NC(C(=O)NC(CC(=O)OC)C(=O)CF)C(C)O (stereo not drawn) [Z-IETD-FMK] (Cbz-IE(OMe)TD(OMe)-CH2F; configuration not given here)	normal
COC(=O)CC(NC(=O)C(C)NC(=O)C(NC(=O)OCc1ccccc1)C(C)C)C(=O)CF (stereo not drawn) [Z-VAD-FMK, Z-VAD(OMe)-FMK] (Cbz-Val-Ala-Asp(OMe)-CH2F; configuration not given here)	normal
PDK1/Akt/Flt Dual Pathway Inhibitor	moderate
